From patent US20230221313A1

Target: SARS CoV-2 reporter virus particle with spike protein D614G mutation (SARS-CoV-2) (UniProt P0DTC2)
Experiment: cell-based or functional assay

With anti-HIV antibody VRC01 the Fold change GFP-/GFP+ (droplet neutralization, NGS reads), Round 1 was 1 and the Fold change GFP-/GFP+ (droplet neutralization, NGS reads), Round 2 was 0.964.
